Results taken from article PMC9162458.
Construct, isoform or probe ends are uncertain for at least one entry. At least one verdict was read from the data and is not stated in words by the source. Protein sequences can lack the tags named with them.

Molecular target: T1, LiRAD51 (full-length) (Leishmania infantum) (UniProt A4I3C9)
T1 sequence (looked up, limits assumed): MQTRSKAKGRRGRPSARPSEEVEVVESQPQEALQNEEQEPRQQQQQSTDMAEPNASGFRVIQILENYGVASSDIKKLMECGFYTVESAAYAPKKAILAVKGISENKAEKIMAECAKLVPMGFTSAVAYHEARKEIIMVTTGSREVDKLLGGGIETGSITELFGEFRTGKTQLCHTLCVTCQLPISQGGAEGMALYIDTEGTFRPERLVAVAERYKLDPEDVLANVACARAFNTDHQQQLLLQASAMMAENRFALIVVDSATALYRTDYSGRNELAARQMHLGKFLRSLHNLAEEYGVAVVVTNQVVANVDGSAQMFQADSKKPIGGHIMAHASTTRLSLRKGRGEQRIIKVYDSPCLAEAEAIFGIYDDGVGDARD
Assay: EMSA
Details: 5 uM LiRAD51, 100 nM DNA, 1 mM ATP, 10 mM Mg acetate, 2 mM CaCl2, no BRC repeat, EMSA: 50 mM HEPES pH 7.4, 150 mM NaCl, 10 mM magnesium acetate, 2 mM CaCl2, 1 mM TCEP, 10 min RT with BRC repeat, then 10 min 37 C with DNA, recombinant protein, single-stranded DNA

“TTTTTTTTTTTTTTTTTTTTTTTTTTTTTTTTTTTTTTTTTTTTTTTTTTTTTTTTTTTT [FAM-dT60]”: binds.
